Measured values reported in paper PMC5454105.

Test system: Cc1cc(=O)oc2c(F)c(OP(=O)(O)O)c(F)cc12
Assay: purified protein
Conditions: 37.0 °C

## (Legionella pneumophila subsp. pneumophila str. Philadelphia 1)
  Km: 11.3 ± 0.8 µM
  kcat/Km: 3580 M⁻¹ s⁻¹
